The chains behind the UniProt entries cited, without tags or fusion partners.
UniProt Q9GZU1, whole entry: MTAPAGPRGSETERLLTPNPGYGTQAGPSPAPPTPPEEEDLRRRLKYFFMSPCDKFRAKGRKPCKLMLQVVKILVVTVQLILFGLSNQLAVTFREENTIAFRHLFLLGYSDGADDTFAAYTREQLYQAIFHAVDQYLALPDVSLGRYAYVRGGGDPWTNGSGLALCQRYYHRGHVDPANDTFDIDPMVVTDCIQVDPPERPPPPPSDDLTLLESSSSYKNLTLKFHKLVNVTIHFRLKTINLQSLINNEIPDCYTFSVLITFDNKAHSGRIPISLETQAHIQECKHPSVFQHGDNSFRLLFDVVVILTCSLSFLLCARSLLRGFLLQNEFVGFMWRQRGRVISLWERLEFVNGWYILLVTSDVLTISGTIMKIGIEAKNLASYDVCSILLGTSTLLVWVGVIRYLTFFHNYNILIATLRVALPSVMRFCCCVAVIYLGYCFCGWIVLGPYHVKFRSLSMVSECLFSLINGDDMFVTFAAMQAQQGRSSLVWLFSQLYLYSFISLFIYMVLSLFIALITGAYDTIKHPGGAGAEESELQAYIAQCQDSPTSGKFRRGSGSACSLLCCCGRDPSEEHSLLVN

The entries are a selection whose mix differs from that of the whole data set. The source made the active and inactive calls. No stated cut-off is given here; in the data, active means activation above about 50%; inconclusive means mostly about 30% to 49%; inactive means weaker than that.
These compounds were tested against Mucolipin-1 (Homo sapiens) (UniProt Q9GZU1) (assay: qHTS for Agonists of the Human Mucolipin Transient Receptor Potential 1 (TRPML1)). Conditions: TRPML1-expressing cells, Ca2+ dye fluorescence, FDSS; stronger effect = higher value.
Outline: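 Agonist activity was taken from a 110 s kinetic Ca2+ dye read on the FDSS after pinning compounds onto TRPML1-DL cells. The cells were seeded at 1,500/well with Tet inducer, incubated about 16 h, then dye-loaded at room temperature.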
For `Cc1cc(C=O)ccc1N(CCCl)CCCl`, the activation was inactive: -0.295%. For `O=P1(N(CCCl)CCCl)OCCCS1` (centres undefined), the activation was inactive: 0.583%. For `Nc1ccc2c(ccc3cccnc32)n1.O=[N+]([O-])c1cc([N+](=O)[O-])c(O)c([N+](=O)[O-])c1`, the activation was inactive: 5.53%. `O=C(O)CNc1ccc([As](=O)(O)O)cc1` was tested, and the activation was inactive: 1.13%. In the case of `COC(=O)C1(C)COP(=O)(Nc2ccccc2)OC1` (centres undefined), the activation is reported as inactive: 0.23%. `O=[N+]([O-])c1cccc(NC2=NCC(CBr)S2)c1` (centres undefined) was tested, and the activation was inactive: -0.227%. With `O=[N+]([O-])c1ncn(CCn2ncnc2[N+](=O)[O-])n1` the activation was inactive: 0.264%. In the case of `CC(C)(C)C(=O)NC(Sc1ccncn1)C(Cl)(Cl)Cl` (centres undefined), the activation is reported as inactive: -0.525%. For `CP(=O)(Oc1ccccc1)N1CCOC1=O` (centres undefined), the activation was inactive: -0.69%. `Cc1ccc(NP(=O)(Oc2ccccc2)Oc2ccccc2)nc1` was tested, and the activation was inactive: -0.674%. `CCc1ccc(OP(C)(=O)Nc2cccnc2)cc1` (centres undefined) was tested, and the activation was inactive: -1.1%. With `CCc1nc2c(n1)c1c(non1O)c1c2no[n+]1[O-]` the activation was inactive: -0.436%. With `O=[N+]([O-])c1cc([N+](=O)[O-])c(CCNc2ccccc2)c([N+](=O)[O-])c1` the activation was inactive: 1.08%. With `O=[N+]([O-])c1cccc2n[nH]nc12` the activation was inactive: -0.605%. With `CC(=O)N1C2C3N(C(C)=O)C1C1N(C(C)=O)C(C(N1C(C)=O)N3C(C)=O)N2C(C)=O` the activation was inactive: -0.894%. For `COc1ccccc1OP(C)(=O)Nc1c(C)n(C)n(-c2ccccc2)c1=O` (centres undefined), the activation was inactive: -0.633%. In the case of `O=C(OCCCN1CCCC1)C(O)(c1ccccc1)C1CCCCC1` (centres undefined), the activation is reported as inactive: 0.78%. With `CCN(CC)CC(O)COC(=O)C(O)(c1ccccc1)C1CCCCC1` (centres undefined) the activation was inactive: 0.865%. With `COc1ccc(OP(C)(=O)Nc2ccc(Br)cc2)cc1` (centres undefined) the activation was inactive: -0.14%. In the case of `COc1ccc(C2=NCC(CBr)S2)cc1` (centres undefined), the activation is reported as inactive: 0.0471%. In the case of `CC1CCN(C(=O)Oc2c(Cl)cc(Cl)c3cccnc23)CC1`, the activation is reported as inactive: -0.654%. In the case of `c1cc(-c2nn[nH]n2)ccc1-c1nn[nH]n1`, the activation is reported as inactive: 0.14%. For `COc1cc([N+](=O)[O-])c([N+](=O)[O-])cc1OC`, the activation was inactive: -0.531%. For `CC(C)c1nc(Nc2ccccc2)n(P(=O)(N(C)C)N(C)C)n1`, the activation was inactive: -0.455%. With `CN(C)C(=O)c1c([N+](=O)[O-])cc([N+](=O)[O-])cc1[N+](=O)[O-]` the activation was inactive: -0.415%. For `CC(C)=N/N=C(\N)N[N+](=O)[O-]`, the activation was inactive: -1.13%. `CN(C)C(=O)OCCc1n(C)cc[n+]1C` was tested, and the activation was inactive: 0.0456%. For `CCN(/C(=N/P(=O)(N1CCOCC1)N1CCOCC1)N1CCOCC1)c1ccc(OC)cc1`, the activation was inactive: 0.715%. For `CP(=O)(Nc1ccc(Cl)cc1)Oc1ccc(F)cc1` (centres undefined), the activation was inactive: 0.147%. `COc1ccccc1OP(C)(=O)Nc1ccccc1Br` (centres undefined) was tested, and the activation was inactive: -0.0882%. With `CC(C)(C)c1ccc(OP(C)(=O)O)cc1` the activation was inactive: 0.25%. For `Nc1ccc([As](=O)(O)c2ccc(N)cc2)cc1`, the activation was inactive: 0%. For `C[N+]1=C2C=CC=CC=C2SC12C([N+](=O)[O-])=CC([N+](=O)[O-])=C[C-]2[N+](=O)[O-]` (centres undefined), the activation was inactive: 1.44%. With `CN1CCCC(OC(=O)C(c2ccccc2)c2ccccc2)C1` (centres undefined) the activation was inactive: -1.01%. For `Clc1ccc(Cl)c(NC2=NCC(CBr)S2)c1` (centres undefined), the activation was inactive: -1.19%. In the case of `CN(C)CCOC(=O)C(O)(c1ccccc1)C1CCCC1` (centres undefined), the activation is reported as inactive: -0.308%. For `COc1ccccc1OP(=O)(Nc1ccc(C)cn1)Oc1ccccc1OC`, the activation was inactive: 1.46%. In the case of `COc1ccc(OP(C)(=O)Nc2ccccn2)cc1` (centres undefined), the activation is reported as inactive: -0.033%. With `Cc1ccc(OP(=O)(Nc2nccs2)Oc2ccc(C)cc2)cc1` the activation was inactive: -0.727%. In the case of `CN(C(=O)Cc1ccc(Cl)c(Cl)c1)[C@H]1CCCC[C@H]1N1CCCC1`, the activation is reported as inactive: 1.58%. For `COc1ccccc1OP(C)(=O)Nc1ccc(Br)cc1` (centres undefined), the activation was inactive: 1.23%. `Cc1ccc(N/C(=N/P(=O)(N2CCOCC2)N2CCOCC2)N2CCOCC2)cc1` was tested, and the activation was inactive: -0.0832%. With `NC(=O)c1cc([N+](=O)[O-])cc([N+](=O)[O-])c1N` the activation was inactive: -0.264%. `O=[N+]([O-])c1cc2c(cc1[N+](=O)[O-])OCO2` was tested, and the activation was inactive: -0.285%. With `CCc1ccc(OP(C)(=O)O)cc1` the activation was inactive: -0.524%. For `O=[N+]([O-])C1C(O)C(O)C([N+](=O)[O-])C(O)C1O` (centres undefined), the activation was inactive: -0.483%. `CP(=O)(Nc1ccccn1)Oc1ccccc1` (centres undefined) was tested, and the activation was inactive: 0.605%. For `COc1ccccc1OP(C)(=O)Nc1ccc(C)cc1C` (centres undefined), the activation was inactive: 0.972%. `Oc1ccccc1CNc1ccccn1` was tested, and the activation was inactive: 0%.
Further: 0% is about no effect.
